A mixed list of measured activities; the numbers were collected in NIAID ChemDB.

Common to all: whole-cell or culture tests; organism: Human cytomegalovirus; endpoint: EC50

ECn: concentration that inhibits the pathogen or its effect by n%. An empty or dashed field is not shown. Rows are shuffled and stem from different studies.

structure | strain | cells | method | value
CC(C)Nc1nc2cc(Cl)c(Cl)cc2n1[C@@H]1O[C@H](CO)[C@@H](O)[C@H]1O | AD169 | MRC-5 | hybridisation | 2.3 µM
Nc1nc2c(ncn2COC(CO)CO)c(=O)[nH]1 | AD169 | HFF | plaque count | 4.3 µM
O=C(NCc1ccc(Cl)cc1)c1c[nH]c2ccc(C#CCO)cc2c1=O | GRU | - | plaque count | 0.8 µM
Nc1nc2c(ncn2C=C2CC2CO)c(=O)[nH]1 | AD169 | - | plaque count | 2.4 µM
Nc1nc2c(ncn2COC(CO)CO)c(=O)[nH]1 | C4 (D341E) | - | plaque count | 6.1 µM
COc1cccc(N2CCN(C3=Nc4c(F)cccc4[C@H](CC(=O)O)N3c3cc(C(F)(F)F)ccc3OC)CC2)c1 | Clinical isolate 17 | - | plaque count | 0.0009 µM
CCCCCCCCCCCCCCCCOCCCOP(=O)(O)CO[C@H](CO)Cn1ccc(N)nc1=O | GDGP53 (drug-resistant mutant) | MRC-5 | plaque count | 0.02 µM
NC(=O)c1c(Cl)c(-c2cccnc2)n2c1CCCC2 | Cidofovir-resistant | HEL | plaque count | 0.13 µM
Nc1ncnc2c1ncn2C=C1CC1CO | TOWNE | KB | virus yield | <1 µM
Nc1nc(N)c2ncn(C[C@@H]3CC[C@H](P(=O)(O)O)O3)c2n1 | - | WI-38 | plaque count | >10 µg/mL
CCCCCCCCCCCCCCCCCCOCCOP1(=O)CO[C@@H](Cn2ccc(N)nc2=O)CO1 | C8805/37-1-1 (drug-resistant mutant) | MRC-5 | plaque count | 0.001 µM
Nc1nc2c(ncn2C[C@H]2CC[C@H](P(=O)(O)O)O2)c(=O)[nH]1 | - | WI-38 | plaque count | >50 µg/mL
O[C@@H]1[C@H](O)[C@H](O)CO[C@H]1n1c(Br)nc2cc(Cl)c(Cl)cc21 | GDGRP53 (drug-resistant) | HFF | plaque count | 2.9 µM
Nc1ncnc2c1ncn2C[C@@H](CO)OCP(=O)(O)O | AD169 | HEL | plaque count | 0.28 µM
CCCCCCCCCCCCCCCCCCOCCOP(=O)(O)CO[C@H](CO)Cn1ccc(N)nc1=O | 759D100 drug-resistant mutant | MRC-5 | plaque count | 0.0055 µM
[O-][n+]1onc2ncnc(N3CC[N+]4(CC3)CC[N+]3(CCN(c5ncnc6no[n+]([O-])c56)CC3)CC4)c21 | TB-40E | HELF | plaque count | 0.18 µM
O=C(O)P(=O)(O)O | AD169 | HEL | plaque count | 61.6 µM
Nc1nc(N)c2ncn(C[C@H]3CC[C@H](P(=O)(O)O)O3)c2n1 | - | WI-38 | plaque count | 100 µg/mL
OC[C@H]1O[C@@H](n2c(Br)nc3cc(Cl)c(Cl)cc32)[C@H](O)[C@@H]1O | C8706/13-1-1 (drug-resistant) | HFF | plaque count | 1.3 µM
CC/C=C\Cn1c(=O)sc2c(=O)[nH]c(N)nc21 | TOWNE | - | - | <40 µM
Nc1ccn(C[C@H]2COP(=O)(O)CO2)c(=O)n1 | AD169 | HEL | flow cytometry | 1.29 µM
CC(C)Nc1nc2cc(Cl)c(Cl)cc2n1[C@H]1O[C@@H](CO)[C@H](O)[C@@H]1O | C8302 | MRC-5 | plaque count | 0.16 µM
Nc1ncnc2c1ncn2C[C@H]1COP(=O)(O)CO1 | DAVIS | HEL | plaque count | 0.43 µM
Nc1nc2c(ncn2COC(CO)CO)c(=O)[nH]1 | HE | HELF | plaque count | 5.9 µM

3 of the rows above, restated:

structure,strain,cells,method,value
Nc1nc(N)c2ncn(C[C@@H]3CC[C@H](P(=O)(O)O)O3)c2n1,-,WI-38,plaque count,>10 µg/mL
Nc1nc(N)c2ncn(C[C@H]3CC[C@H](P(=O)(O)O)O3)c2n1,-,WI-38,plaque count,100 µg/mL
Nc1ccn(C[C@H]2COP(=O)(O)CO2)c(=O)n1,AD169,HEL,flow cytometry,1.29 µM